Results on 36 substances are retold here after article PMC6063448 (PLoS ONE, 2018).

Some peptides are written in HELM: one residue between dots, names in brackets for other building blocks, links after the first $.

This data set in a line: general procedure: Fmoc solid-phase peptide synthesis; Fmoc-Rink-MBHA resin (0.56 mmol/g); Oxyma/DIC. The following applies: whole synthesis, 220 nm.
Take “PEPTIDE1{[ac].K.K.[KAC11].F.K.K.I.L.K.Y.L.[am]}$$$$V2.0”: the “final HPLC purity” value was found to be 97%.

On to “PEPTIDE1{[Cn4].K.K.L.F.K.K.I.L.K.Y.L.[am]}$$$$V2.0”, for which the “final HPLC purity” value is over 99%.

Turning to “PEPTIDE1{[ac].K.K.L.F.[KAC11].K.I.L.K.Y.L.[am]}$$$$V2.0”, the “final HPLC purity” value is reported as over 99%.

As to “PEPTIDE1{[ac].K.K.L.F.K.K.I.L.[KAC5].Y.L.[am]}$$$$V2.0”, the “final HPLC purity” value was over 99%.

Take “PEPTIDE1{[ac].K.K.L.F.K.K.I.[KAC3].K.Y.L.[am]}$$$$V2.0”: the “final HPLC purity” value is listed as over 99%.

With “PEPTIDE1{[ac].K.[KAC11].L.F.K.K.I.L.K.Y.L.[am]}$$$$V2.0”, the “final HPLC purity” value is over 99%.

For the substance “PEPTIDE1{[ac].K.K.L.F.K.K.I.[KAC11].K.Y.L.[am]}$$$$V2.0”, the “final HPLC purity” value was over 99%.

In the case of “PEPTIDE1{[ac].K.K.L.F.K.K.I.L.[KAC11].Y.L.[am]}$$$$V2.0”, the “final HPLC purity” value is over 99%.

As for “PEPTIDE1{[ac].[KAC3].K.L.F.K.K.I.L.K.Y.L.[am]}$$$$V2.0”, the “final HPLC purity” value is listed as over 99%.

Take “PEPTIDE1{[ac].K.K.L.F.K.K.[KAC3].L.K.Y.L.[am]}$$$$V2.0”: the “final HPLC purity” value is given as over 99%.

For “PEPTIDE1{[ac].K.K.L.[KAC11].K.K.I.L.K.Y.L.[am]}$$$$V2.0”, the “final HPLC purity” value was over 99%.

In the case of “PEPTIDE1{[ac].K.K.L.F.[KAC3].K.I.L.K.Y.L.[am]}$$$$V2.0”, the “final HPLC purity” value was over 99%.

Regarding “PEPTIDE1{[Cn12].K.K.L.F.K.K.I.L.K.Y.L.[am]}$$$$V2.0”, the “final HPLC purity” value is on record as over 99%.

With “PEPTIDE1{[ac].K.K.[KAC5].F.K.K.I.L.K.Y.L.[am]}$$$$V2.0”, the “final HPLC purity” value is over 99%.

Take “PEPTIDE1{[ac].K.K.L.F.K.K.I.L.K.Y.[KAC5].[am]}$$$$V2.0”: the “final HPLC purity” value is over 99%.

For the substance “PEPTIDE1{[ac].K.K.L.[KAC5].K.K.I.L.K.Y.L.[am]}$$$$V2.0”, the “final HPLC purity” value is over 99%.

In the case of “PEPTIDE1{[ac].K.K.L.F.K.K.[KAC5].L.K.Y.L.[am]}$$$$V2.0”, the “final HPLC purity” value is reported as over 99%.

As to “PEPTIDE1{[ac].K.K.L.F.K.K.I.L.K.[KAC11].L.[am]}$$$$V2.0”, the “final HPLC purity” value is over 99%.

For the substance “PEPTIDE1{[ac].K.K.L.F.K.[KAC5].I.L.K.Y.L.[am]}$$$$V2.0”, the “final HPLC purity” value is recorded as over 99%.

Take “PEPTIDE1{[ac].K.[KAC3].L.F.K.K.I.L.K.Y.L.[am]}$$$$V2.0”: the “final HPLC purity” value was over 99%.

Take “PEPTIDE1{[ac].K.K.L.F.K.K.I.L.K.Y.[KAC11].[am]}$$$$V2.0”: the “final HPLC purity” value is 99%.

With “PEPTIDE1{[ac].[KAC5].K.L.F.K.K.I.L.K.Y.L.[am]}$$$$V2.0”, the “final HPLC purity” value is given as over 99%.

For the substance “PEPTIDE1{[ac].K.K.L.F.K.K.I.L.K.[KAC5].L.[am]}$$$$V2.0”, the “final HPLC purity” value is listed as over 99%.

Turning to “PEPTIDE1{[ac].[KAC11].K.L.F.K.K.I.L.K.Y.L.[am]}$$$$V2.0”, the “final HPLC purity” value was over 99%.

As to “PEPTIDE1{[ac].K.K.L.F.K.[KAC11].I.L.K.Y.L.[am]}$$$$V2.0”, the “final HPLC purity” value is 97%.

Take “PEPTIDE1{[ac].K.K.L.[KAC3].K.K.I.L.K.Y.L.[am]}$$$$V2.0”: the “final HPLC purity” value was over 99%.

“PEPTIDE1{[ac].K.K.L.F.K.K.I.L.K.[KAC3].L.[am]}$$$$V2.0”: the “final HPLC purity” value is over 99%.

As to “PEPTIDE1{[ac].K.K.[KAC3].F.K.K.I.L.K.Y.L.[am]}$$$$V2.0”, the “final HPLC purity” value was over 99%.

Consider “PEPTIDE1{[ac].K.K.L.F.K.K.I.L.K.Y.[KAC3].[am]}$$$$V2.0”, for which the “final HPLC purity” value is recorded as over 99%.

On to “PEPTIDE1{[ac].K.[KAC5].L.F.K.K.I.L.K.Y.L.[am]}$$$$V2.0”, for which the “final HPLC purity” value stood at 92%.

Regarding “PEPTIDE1{[ac].K.K.L.F.K.K.I.L.[KAC3].Y.L.[am]}$$$$V2.0”, the “final HPLC purity” value is on record as over 99%.

As for “PEPTIDE1{[ac].K.K.L.F.K.K.I.[KAC5].K.Y.L.[am]}$$$$V2.0”, the “final HPLC purity” value was over 99%.

Consider “PEPTIDE1{[ac].K.K.L.F.K.[KAC3].I.L.K.Y.L.[am]}$$$$V2.0”, for which the “final HPLC purity” value is given as over 99%.

Turning to “PEPTIDE1{[Cn6].K.K.L.F.K.K.I.L.K.Y.L.[am]}$$$$V2.0”, the “final HPLC purity” value is recorded as over 99%.

Consider “PEPTIDE1{[ac].K.K.L.F.K.K.[KAC11].L.K.Y.L.[am]}$$$$V2.0”, for which the “final HPLC purity” value was over 99%.

On to “PEPTIDE1{[ac].K.K.L.F.[KAC5].K.I.L.K.Y.L.[am]}$$$$V2.0”, for which the “final HPLC purity” value was over 99%.
